Molecular target: M2 protein of influenza A/Solomon Islands/3/06 (H1N1), on inactivated whole virions (influenza A virus A/Solomon …)
Test: ELISA, positive control antibody on inactivated whole virions

B1: TCN-032 (8I10) (antibody, V domains shown)
VH: QVQLQESGPGLVKPSETLSLTCTVSGSSISNYYWSWIRQSPGKGLEWIGFIYYGGNTKYNPSLKSRVTISQDTSKSQVSLTMSSVTAAESAVYFCARASCSGGYCILDYWGQGTLVTVS
VL: DIQMTQSPSSLSASVGDRVTITCRASQNIYKYLNWYQQRPGKAPKGLISAASGLQSGVPSRFSGSGSGTDFTLTITSLQPEDFATYYCQQSYSPPLTFGGGTRVEIK
ELISA virus binding (OD450): 3.61 OD450
